A mixed list of measured activities; the numbers were collected in NIAID ChemDB.

All rows: host cell toxicity; read-out: CC50

CCn is the concentration with n% toxicity to the cells.

compound	cell line	read by	value
Cn1cc(C(=O)O)c(=O)c2cc(F)c(N3CC=C(c4ccccc4)CC3)c(C(F)(F)F)c21	U1	MTT	0.62 µM
CC(=O)c1cccc(-c2ccc(C(=O)N(Cc3cccc(OCCCCCC(=O)OC(=O)O)c3)C(C)C)cc2)c1	RAJI		>20 µM
O=C(N/N=C/c1ccccc1)Nc1cccc2nsnc12	Cf2Th-CD4/CCR5	luminescence	75.2 µM
COc1cc2c(cc1OC)C1(CC=CCC1)N(C(C)=O)CC2	HEK 293		<7.5 µM
COc1cc(CC[C@H](C[C@@H](CCc2cc(OC)c(OC)c(OC)c2)OC(=O)c2ccc(Br)cc2)OC(=O)c2ccc(Br)cc2)cc(OC)c1OC	1A2	XTT	>301 µM
Nc1ncnc2c1c(-c1ccco1)cn2[C@@H]1O[C@H](CO)[C@@H](O)[C@H]1F	Replicon cells	XTT	33.46 µM
Cc1ccc(C)c(OCCCCCCN2C[C@H](O)[C@@H](O)[C@H](O)[C@H]2CO)c1	Huh7.5	MTT	208 µM
O=C(N/N=C/c1cc(O)cc(O)c1)Nc1cccc2nsnc12	Cf2Th-CD4/CCR5	luminescence	>112 µM
CC[C@H](O)C1=C[C@@H](n2cnc3c(N)ncnc32)[C@H](O)[C@@H]1O	P4		>206 µM
CNC(=S)Nc1cccc(OCCCCCc2ccccc2)c1	Ava5-EG(delta4AB)SEAP	MTS	>1 µM
C[C@@H]1C[C@@H](O)[C@H]2C3=C(C[C@H](O)[C@@]2(O)C1)C(=O)c1c(O)cccc1C3=O	NCI-H187	resazurin	4.5 µM
O=C(O)c1ccccc1/C=N/n1cc(C(=O)O)c2ccccc2c1=O	HEP-2/L-929/VERO		600 µM
CCCCn1c(=O)c2ccccc2c2cc(C(O)(C(F)(F)F)C(F)(F)F)cc(F)c21	Replicon cells	tetrazolium	12.1 µM
Nc1ncnc2c1c(-c1ccco1)cn2[C@@H]1O[C@H](CO)[C@@H](O)C1(F)F	Replicon cells	XTT	37.06 µM
C=C[C@H](O)C1=C[C@@H](n2cnc3c(N)ncnc32)[C@H](O)[C@@H]1O	P4		>208 µM
NC(=S)Nc1cccc(OCCCCCOc2ccc(Oc3ccccc3)cc2)c1	Ava5-EG(delta4AB)SEAP	MTS	>1 µM
Nc1ccn([C@@H]2CS[C@H](CO)O2)c(=O)n1	MAGI	MTT	>100 µg/mL
CNc1ncc2ncn([C@@H]3O[C@H](CO)[C@@H](O)[C@H]3F)c2n1	CEF	MTT	>100 µM
C=C1CC[C@H]2C(C)(C)CCC[C@]2(C)[C@H]1CCC1=CC(=O)OC1	1A2	XTT	368.3 µM
O=C(O)c1cn(/N=C/c2ccccc2Br)c(=O)c2ccccc12	HEP-2/L-929/VERO		30 µM
Nc1ncnc2c1c(-c1cccs1)cn2[C@@H]1O[C@H](CO)[C@@H](O)C1(F)F	Replicon cells	XTT	32.71 µM
Nc1ccn([C@H]2CC[C@@H](CO)O2)c(=O)n1	RAJI		12 µM
CCCCn1c(=O)c2ccccc2c2cc(C(O)(C(F)(F)F)C(F)(F)F)c(C)cc21	Replicon cells	tetrazolium	28.9 µM
COc1cc(CC[C@@H](O)C[C@H](O)CCc2cc(OC)c(OC)c(OC)c2)cc(OC)c1OC	1A2	XTT	>269.1 µM
Nc1nc2c(=O)[nH]c(Cl)nc2n1[C@@H]1O[C@H](CO)[C@@H](O)[C@H]1F	MDCK	MTT	>500 µM
O=C(O)c1cn(/N=C/C=C/c2ccccc2)c(=O)c2ccccc12	HEP-2/L-929/VERO		100 µM
O=C(N/N=C/c1cccc(F)c1)Nc1cccc2nsnc12	Cf2Th-CD4/CCR5	luminescence	69.4 µM
Nc1ncnc2c1ncn2[C@@H]1O[C@H](CO)C[C@@H]1F	ATH8		100–200 µM
Nc1nc2c(nc(N)n2[C@@H]2O[C@H](CO)[C@@H](O)[C@H]2F)c(=O)[nH]1	CEF	MTT	16 µM
CCOC(=O)CCCCOc1ccccc1NC(C)C	BJ		>20 µM
CCOC(=O)/C=C/[C@H](C[C@@H]1CCNC1=O)NC(=O)c1ccc2ccc(Br)cc2c1	H1-HELA		56.2 µM
O=C(O)c1cn(/N=C/c2ccccc2Cl)c(=O)c2ccccc12	HEP-2/L-929/VERO		30 µM
C#Cc1cn([C@@H]2O[C@H](CO)[C@@H](O)C2(F)F)c2ncnc(N)c12	Replicon cells	XTT	17.1 µM
CCCNCc1cccc(OCCCCCC(=O)OCC)c1	BJ		>20 µM
CCN(CC)C(=S)OCC1CN(C(=O)c2cc(OC)c(OC)c(OC)c2)CCN1C(=O)c1cc(OC)c(OC)c(OC)c1	MDM		<10 µM
COc1ncc2ncn([C@@H]3O[C@H](CO)[C@@H](O)[C@H]3F)c2n1	CEF	MTT	>100 µM
C#C[C@@H](O)C1=C[C@@H](n2cnc3c(N)ncnc32)[C@H](O)[C@@H]1O	P4		>209 µM
CCCCn1c(=O)c2ccccc2c2cc(C(O)(C(F)(F)F)C(F)(F)F)c(F)cc21	Replicon cells	tetrazolium	25.5 µM
CNC[C@@H](Cc1ccc2ccccc2c1)NC[C@H](Cc1ccc2ccccc2c1)NCC1(c2ccccc2)CC1	KB cells		1.77 µg/mL
Cc1cc(/C=N/NC(=O)Nc2cccc3nsnc23)cc(C)c1O	Cf2Th-CD4/CCR5	luminescence	0.1 µM
CCCCn1c(=O)c2cc(OC)ccc2c2cc(C(O)(C(F)(F)F)C(F)(F)F)ccc21	Replicon cells	tetrazolium	9.6 µM
Nc1ncnc2c1c(I)cn2[C@@H]1O[C@H](CO)[C@@H](O)[C@H]1F	Replicon cells	XTT	7.37 µM
CCOC(=O)/C=C/[C@H](CCC(N)=O)NC(=O)NC(CC(C)C)C(=O)OCC	H1-HELA		>100 µM
CCn1c2ccccc2c2cc(NC(N)=S)ccc21	Ava5-EG(delta4AB)SEAP	MTS	>1 µM
C#C[C@H](O)C1=C[C@@H](n2cnc3c(N)ncnc32)[C@H](O)[C@@H]1O	P4		>209 µM
CCC(O)(CC)CCCCCCN1C[C@H](O)[C@@H](O)[C@H](O)[C@H]1CO	Huh7.5	MTT	>500 µM
NC(=S)Nc1cccc(OCCCCCOc2ccc(-c3ccco3)cc2)c1	Ava5-EG(delta4AB)SEAP	MTS	>1 µM
CC(/C=N/n1cc(C(=O)O)c2ccccc2c1=O)=C\c1ccccc1	HEP-2/L-929/VERO		500 µM
CCCCn1c(=O)c2cc(OC)ccc2c2c(OC)c(C(O)(C(F)(F)F)C(F)(F)F)c3c(c21)OCO3	Replicon cells	tetrazolium	>100 µM
CCOC(=O)/C=C/[C@H](CCC(N)=O)NC(=O)c1ccc2ccccc2c1	H1-HELA		>100 µM
COc1cc(O)c2c(=O)c(O)c(-c3ccc(OC)c(O)c3)oc2c1	1A2	XTT	>757 µM
C#Cc1cn([C@@H]2O[C@H](CO)[C@@H](O)[C@H]2F)c2ncnc(N)c12	Replicon cells	XTT	12.38 µM
CC(C)C1=C[C@@H]2[C@H](CC[C@@]2(C)O)[C@@](C)(O)CC1	1A2	XTT	>1050 µM
CCCCCCCCCN1C[C@H](O)[C@@H](O)[C@H](O)[C@H]1CO	Huh7.5	MTT	87 µM
Nc1ncnc2c1c(-c1ccccc1)cn2[C@H]1O[C@H](CO)[C@@H](O)C1(F)F	Replicon cells	XTT	>44 µM
COc1ccc(/C=N/NC(=O)Nc2cccc3nsnc23)cc1OC	Cf2Th-CD4/CCR5	luminescence	25.9 µM
NC(=S)Nc1cccc(OCCCc2ccccc2)c1	Ava5-EG(delta4AB)SEAP	MTS	>1 µM
Nc1ncnc2c1c(-c1ccsc1)cn2[C@H]1O[C@H](CO)[C@@H](O)C1(F)F	Replicon cells	XTT	40.45 µM
COc1cc(/C=N/NC(=O)Nc2cccc3nsnc23)ccc1O	Cf2Th-CD4/CCR5	luminescence	0.8 µM
CCOC(=O)/C=C/[C@H](C[C@@H]1CCNC1=O)NC(=O)COc1ccc(Cl)c(Cl)c1	H1-HELA		>10 µM
COc1cccc2c1C(=O)c1ccc3cc(C)cc(O)c3c1C2=O	NCI-H187	resazurin	5.5 µM
CCOC(=O)/C=C/[C@H](C[C@@H]1CCNC1=O)NC(=O)C1=Cc2cc(Br)ccc2OC1	H1-HELA		65 µM
COc1nc2c(nc(N)n2[C@@H]2O[C@H](CO)[C@@H](O)[C@H]2F)c(=O)[nH]1	CEF	MTT	21 µM

The last 8 rows once more:

{"compound": "COc1ccc(/C=N/NC(=O)Nc2cccc3nsnc23)cc1OC", "cell line": "Cf2Th-CD4/CCR5", "read by": "luminescence", "value": "25.9 µM"}
{"compound": "NC(=S)Nc1cccc(OCCCc2ccccc2)c1", "cell line": "Ava5-EG(delta4AB)SEAP", "read by": "MTS", "value": ">1 µM"}
{"compound": "Nc1ncnc2c1c(-c1ccsc1)cn2[C@H]1O[C@H](CO)[C@@H](O)C1(F)F", "cell line": "Replicon cells", "read by": "XTT", "value": "40.45 µM"}
{"compound": "COc1cc(/C=N/NC(=O)Nc2cccc3nsnc23)ccc1O", "cell line": "Cf2Th-CD4/CCR5", "read by": "luminescence", "value": "0.8 µM"}
{"compound": "CCOC(=O)/C=C/[C@H](C[C@@H]1CCNC1=O)NC(=O)COc1ccc(Cl)c(Cl)c1", "cell line": "H1-HELA", "value": ">10 µM"}
{"compound": "COc1cccc2c1C(=O)c1ccc3cc(C)cc(O)c3c1C2=O", "cell line": "NCI-H187", "read by": "resazurin", "value": "5.5 µM"}
{"compound": "CCOC(=O)/C=C/[C@H](C[C@@H]1CCNC1=O)NC(=O)C1=Cc2cc(Br)ccc2OC1", "cell line": "H1-HELA", "value": "65 µM"}
{"compound": "COc1nc2c(nc(N)n2[C@@H]2O[C@H](CO)[C@@H](O)[C@H]2F)c(=O)[nH]1", "cell line": "CEF", "read by": "MTT", "value": "21 µM"}

a–b is a range or a potency band. Rows are shuffled and stem from different studies. An empty or dashed field is not shown.